The supplement of paper PMC9931576
Human monoclonal antibodies against the spike receptor-binding domain (heavy:light variable regions). IC50 against pseudoviruses bearing the spike of naturally observed variants; lower = stronger; >10 µg/ml means not reached at the top dose. No active / inactive call. The stated detection limit is 0.0005 µg/ml; values near or below 0.001 µg/ml lie at the floor of the assay.

B1: BD55-4484 (protein)
chain 1: EAQLVESGGGLVQPGGSLRLSCAASGFTFSDYEMNWVRQAPGKGLEWVSFISSSANTIYYADSVKGRFTISRDNAKNSLYLQMNSLRAEDTAVYYCARTKGFDWLLNGGYYYGMDVWGQGATVTVSS
chain 2: QSVLTQPPSVSAAPGQRVTISCTGSSSNIGAGYDVHWYQQHPGTTPKLLIYASTNRPSGVPDRFSGSNSGTSASLAITGLQAEDEAYYYCQSYDFSVSGYVVFGGGTKLTVL
B2: BD55-4662 (protein)
chain 1: QVQLQESGPGLVKPSETLSLTCTVSGASISSYYWTWIRQPPGKGLEWIGYIYNSGSTDYSPRGSTNYSPSLESRVTISVDTSKNQFSLKLSSVTAADTAVYHCARHPWTEMATYRSAYYFDSWGQGTLVTVSS
chain 2: QSALTQPASVSGSPGQSITISCTGTTSDVGAYNHVSWYQQHPGKAPNLMIYDVSERPSGVSDRFSASKSGNTASLTISGLQAEDEADYYCCSYAGRSTWMFGGGTKLTVL
B3: BD55-4664 (protein)
chain 1: QVQLQQWGAGLLRPSETLSLTCAVSGGSFSGYYWSWIRQPPGKGLEWIGEINHTGGTNYNPSLKSRVTVSIDMSRNQFSVKLNSLTAADTAVYFCAREAPDYFDSSGYRFDYWGQGALVTISS
chain 2: QSALTQPASVSGSPGQSITISCTGTSNDVGGYNYVSWYQQHPGKAPKLIIYDVTSRPSGISNRFSGSKSGNTASLTISGLQAEDEADYYCCSYTRSFTRVFGGGTKLTVL
B4: BD55-5164 (protein)
chain 1: QLQLQESGPGLVKPSETLSLTCIVSRGSISSSSYFWAWVRQAPGKGLEWIGTIDYTGNTHYNTSLKSRVTISVDTSKNQFSLRLRSVTAADTALYFCSRQSAPPWGSSWGDYWGRGTLVTVSS
chain 2: DIQMTQSPSSLSASVGDRVTISCQASQDISNYLNWYHQTPGKAPILLIFDASNLEAGVPSRFSGSGSGRHFSFTISSLQPEDTGTYYCQQYANLPALTFGGGTKVDIK
B5: BD55-5167 (protein)
chain 1: QITLKESGPTLVKPTQTLTLTCTFSGFSLTTTGMGVGWIRQPPGKAPEWLALIYWLDDTRYSPSLESRLTLTKDTSKNLVVLTMTNMDPVDTATYYCAHLYYDSSSGYDTTGPDAFDFWGQGTMVTVSP
chain 2: AIQITQSPSSLSASPGDRVTITCRASQGISSFLAWYQQRRGRAPKLLIHSASTLQNGVPSRISGSGSGTDFTLTITGLQSEDFATYYCQQYYSYPPTFGHGTKVEF
B6: BD55-5170 (protein)
chain 1: QVQLVESGGGVVQPGRSLRLSCVASGFTFNTYGMHWVRQVPGKGLEWVAVISYDGSNQIYGDSVKGRFTISRDNSKNTVYLQMNGLRAEDTAVYYCATPLHDYSGYDLFDYGYAMDVWGQGTTVTVSS
chain 2: QSVLTQPPSASGTPGQRVTVSCSGSSSNIGSDYVYWYQQFPGTAPKLLIYRNSQRPSGVPDRFSGSKSGTSASLAISGLRSEDEADYYCAAWDGSISAWVFGGGTKLTVL

Biological target: SARS-CoV-2 Omicron BA.1 spike pseudovirus
Assay: pseudovirus neutralization IC50; higher = weaker neutralization
Experimental: (§1)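 Single-round VSV luciferase pseudovirus mixed with antibody dilutions for 1 h and put on Huh-7 cells for about a day; IC50 from the dose curve.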

| Binder | pseudovirus neutralization IC50 [µg/mL] |
| --- | --- |
| B1 | 0.0623 |
| B2 | 0.136 |
| B3 | 0.209 |
| B4 | > 10 |
| B5 | > 10 |
| B6 | > 10 |

Biological target: SARS-CoV-2 Omicron BA.2 spike pseudovirus
Assay: as above
Experimental: as §1

| Binder | pseudovirus neutralization IC50 [µg/mL] |
| --- | --- |
| B1 | 0.26 |
| B2 | 0.118 |
| B3 | 0.242 |
| B4 | > 10 |
| B5 | > 10 |
| B6 | > 10 |

Biological target: SARS-CoV-2 Omicron BA.2.75 spike pseudovirus
Assay: as above
Experimental: as §1

| Binder | pseudovirus neutralization IC50 [µg/mL] |
| --- | --- |
| B1 | 0.299 |
| B2 | 0.0751 |
| B3 | 0.549 |
| B4 | > 10 |
| B5 | > 10 |
| B6 | > 10 |

Biological target: SARS-CoV-2 Omicron BA.5 spike pseudovirus
Assay: as above
Experimental: as §1

| Binder | pseudovirus neutralization IC50 [µg/mL] |
| --- | --- |
| B1 | 1.12 |
| B2 | > 10 |
| B3 | 0.738 |
| B4 | > 10 |
| B5 | > 10 |
| B6 | > 10 |

Biological target: SARS-CoV-2 Omicron BQ.1.1 spike pseudovirus
Assay: as above
Experimental: as §1

| Binder | pseudovirus neutralization IC50 [µg/mL] |
| --- | --- |
| B1 | 0.317 |
| B2 | > 10 |
| B3 | > 10 |
| B4 | > 10 |
| B5 | > 10 |
| B6 | > 10 |

Biological target: SARS-CoV-2 Omicron XBB spike pseudovirus
Assay: as above
Experimental: as §1

| Binder | pseudovirus neutralization IC50 [µg/mL] |
| --- | --- |
| B1 | 1.21 |
| B2 | > 10 |
| B3 | > 10 |
| B4 | > 10 |
| B5 | > 10 |
| B6 | > 10 |

Biological target: SARS-CoV-2 early D614G spike pseudovirus
Assay: as above
Experimental: as §1

| Binder | pseudovirus neutralization IC50 [µg/mL] |
| --- | --- |
| B1 | 0.0264 |
| B2 | 0.00254 |
| B3 | 0.0803 |
| B4 | 2.19 |
| B5 | 0.0369 |
| B6 | 0.0218 |
